Values from PubChem BioAssay AID504761 (Drosophila RNAi Screening Center, 2011)
Screen: 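Fly genes whose silencing reduces dengue virus type 2 infection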 (primary screen). Cells: D.Mel-2 cells from Drosophila. Knock-down reagent: long dsRNA against Drosophila genes. Treatment: infection with dengue virus type 2; dose and infection time not stated. Measured: 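Cells stained for dengue envelope protein and imaged; percent of infected cells per well on duplicate plates, ranked by infection, with stained nuclei counted for cell number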. Reading the numbers: infection score: higher = more virus-infected cells; cell count: higher = more cells in the well. Call rule: 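Low infection ranks in the two replicates (chance level up to 0.065) followed by a retest with a 1.5-fold or larger significant decrease, p below 0.05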. Meaning of the calls: active = confirmed: knock-down lowers infection; inactive = not picked or not confirmed.
The screen tested about 22,000 reagents; this is an unselected part of those that have a named target and a result. Over the whole deposit, 116 (0.52%) are marked active. 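Calls depend on retest data that are not deposited; infection was ranked per plate without normalising between plates; the unit of the infection score is not given.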 Raw values vary from plate to plate and are shown uncorrected. Entries without a mark were called inactive. A plus sign joins genes that one reagent is predicted to hit. Not stated in the record: the amount of reagent, the time to read-out.

gene,DRSC id,"infection score, replicate 1","infection score, replicate 2","cell count, replicate 1","cell count, replicate 2"
CG15136 (GeneID 35033),DRSC02436,1.52,3.77,6691,6740
Polr1C (GeneID 33712),DRSC02719,4.21,12.8,4966,4705
Vsx2 (GeneID 31469),DRSC18088,2.63,7.25,6568,6452
Vsx2 (GeneID 31469),DRSC23089,3.08,2.5,5944,6411
Vsx2 (GeneID 31469),DRSC23273,1.14,10.8,5269,6366
Acsx1R (GeneID 42352),DRSC14339,3.65,13,767,4946
Atg101 (GeneID 32871),DRSC20020,4.25,3.58,4045,5477

A stretch from the list above, for reference:
gene,DRSC id,"infection score, replicate 1","infection score, replicate 2","cell count, replicate 1","cell count, replicate 2"
Vsx2 (GeneID 31469),DRSC23089,3.08,2.5,5944,6411
Vsx2 (GeneID 31469),DRSC23273,1.14,10.8,5269,6366

Continued:
gene,DRSC id,"infection score, replicate 1","infection score, replicate 2","cell count, replicate 1","cell count, replicate 2"
CG14431 (GeneID 31639),DRSC17925,2.81,2.24,6474,6971
CG14431 (GeneID 31639),DRSC23593,3.86,3.54,6427,6353
CG42249 (GeneID 32043),DRSC19383,1.11,5,6238,6835
CG42249 (GeneID 32043),DRSC19826,4.17,1.51,6614,6951
CG42249 (GeneID 32043),DRSC28504,14.4,8.68,5790,4759
lncRNA:sphinx + ATPsynF,DRSC17191,6.18,3.51,5004,4472
CG13676 (GeneID 38906),DRSC10035,1.25,1.97,5536,5636
CG43325 (GeneID 246515),DRSC04157,6.52,6.52,6646,6257
Slc25A46b (GeneID 35081),DRSC02888,10.5,11.6,6102,3177
CG30116 (GeneID 37126),DRSC05935,23.3,32.5,6391,5334
CG30116 (GeneID 37126),DRSC06685,4.68,18.9,5750,5533
CG33459 (GeneID 2768847),DRSC05615,4.38,1.54,6399,6291
vlc (GeneID 46078),DRSC04922,4.98,11.3,6327,6484
CG8112 (GeneID 41033),DRSC16377,3.64,11.1,5742,5938
CG5687 (GeneID 38255),DRSC08568,6.59,20.4,6283,5433
CG10336 (GeneID 35122),DRSC02037,14.1,7.88,5963,5999
